Results of unrelated studies side by side (data: NIAID ChemDB).

Common to all: growth or infection tests; agent: Candida albicans; read-out: MIC

An empty or dashed field is not shown. Rows are shuffled and stem from different studies.

compound,strain or isolate,result
C=C(C)C1Cc2cc3ccc(=O)oc3cc2O1,ATCC 14053,500 µg/mL
CC1=C(N2C[C@H](CF)[C@@H](N)C2)C(F)=CN2C(=O)C(C(=O)O)=CC(C3CC3)C12,CCH442,>100 µg/mL
CCCC[C@H]1C(=O)O[C@H](C)C(CCCCCCCCCCCCCCCNC(=O)c2cccc(NC=O)c2O)C(=O)O[C@@H](C)[C@@H]1OC(=O)CC(C)C,IFO1061,>100 µg/mL
O=C1/C(=C/c2ccccc2)CN(C(=O)/C=C/c2ccccc2)C/C1=C\c1ccccc1,1 clinical isolate,>32 µg/mL
CN1CCC2=C(CCCC2CCc2ccc(F)cc2)C1,C316,16 µg/mL
CC1=C(N2CC[C@@H](CNCCF)C2)C(F)=CN2C(=O)C(C(=O)O)=CC(C3CC3)C12,CCH442,>100 µg/mL
COc1ccc(CCC2CCCc3cnccc32)cc1OC,C316,>125 µg/mL
C/C=C(/C)C(=O)OC1C(C)OC(=O)C(NC(=O)c2nccc(OC)c2O)COC(=O)C1Cc1ccccc1,IFO1061,0.78 µg/mL
O=C1/C(=C/c2ccccc2)CN(C(=O)c2ccc(/C=C/C(=O)c3ccc(O)cc3)cc2)C/C1=C\c1ccccc1,1 clinical isolate,>32 µg/mL
CCCC[C@H]1C(=O)O[C@H](C)C(CCCCCCCCCCCNC(=O)c2cccc(NC=O)c2O)C(=O)O[C@@H](C)[C@@H]1OC(=O)CC(C)C,IFO1061,25 µg/mL
O=C(/C=C/c1ccc(SCCCCCN2CCCCC2)cc1)c1ccccc1,PCM 1409 PZH,127 µM
COc1ccc(CCC2(CCc3ccc(OC)c(OC)c3)CCCC3=C2CCN(C)C3)cc1OC,C316,125 µg/mL
Cc1c(N2CC(N)C3(C2)OCCO3)c(F)cn2c(=O)c(C(=O)O)cc(C3CC3)c12.Cl,CCH442,>100 µg/mL
Clc1ccc(CCC2CCCc3cnccc32)cc1,C316,8 µg/mL
COc1ccnc(C(=O)N[C@H]2COC(=O)[C@H](Cc3ccccc3)[C@@H](OC(=O)C(C)C)[C@H](C)OC2=O)c1O,IFO1061,0.2 µg/mL
C[C@@H]1[C@H](O)[C@@H](C)/C=C/C=C/CC/C=C/C=C/C=C/C=C/[C@H](O[C@@H]2O[C@H](C)[C@@H](O)[C@H](N)[C@@H]2O)C[C@@H]2O[C@](O)(C[C@@H](O)[C@H](O)CC[C@@H](O)C[C@@H](O)C[C@@H](O)CC(=O)O[C@H]1C)C[C@H](O)[C@H]2C(=O)O,ATCC 10231,0.375 µg/mL
Clc1ccc(COC(Cn2ccnc2)c2ccc(Cl)cc2Cl)c(Cl)c1,505,4 µg/mL
CC1CCN(CCCCCSc2ccc(/C=C/C(=O)c3ccccc3)cc2)CC1,PCM 1409 PZH,184 µM
O=Cc1ccc2oc(=O)ccc2c1,ATCC 14053,500 µg/mL
C[C@@H](c1nc(-c2ccc(C#N)cc2)cs1)[C@](O)(Cn1cnnc1)c1ccc(F)cc1F,Darlington,8 µg/mL
Cc1c(N2CCC(N(C)C)CC2)c(F)cn2c(=O)c(C(=O)O)cc(C3CC3)c12,CCH442,>100 µg/mL
Oc1cccc2cccnc12,,25 µg/mL
O=c1ccc2cc(Cl)ccc2o1,ATCC 14053,500 µg/mL
O=S(Cc1ccccc1)SCCO,,16 µg/mL
O=C(O)c1ccc(/C=C/C(=O)c2ccc(Cl)cc2)cc1,1 clinical isolate,>32 µg/mL
C/C=C/C(=O)Oc1cccc2cccnc12,,25 µg/mL
Cc1c(N2CCCC(N)C2)c(F)cn2c(=O)c(C(=O)O)cc(C3CC3)c12,CCH442,>100 µg/mL
CN1CC[C@H]2[C@@H](CC[C@@H]3c4cc(F)ccc4CC[C@H]23)C1,C316,62 µg/mL
O=C1/C(=C/c2ccccc2)CN(C(=O)/C=C/c2ccc3c(c2)OCO3)C/C1=C\c1ccccc1,1 clinical isolate,>32 µg/mL
CCCCCOc1cccc2cccnc12,,50 µg/mL
COP(=O)(OC)OC[C@@H](O)[C@@H](O)[C@H](O)[C@@H](N)CO,ATCC 10261,300 µg/mL
O=C(/C=C/c1ccccc1)Oc1cccc2cccnc12,,>100 µg/mL
CN1CCSC1=[Se],CA10,12 µg/mL
Fc1ccc(CCC2CCCc3cnccc32)cc1,C316,31 µg/mL
CC1(C)NC(=S)NC1=O,CA10,>100 µg/mL
O=C1/C(=C/c2ccccc2)CNC/C1=C\c1ccccc1,1 clinical isolate,>32 µg/mL
Clc1ccccc1C(c1ccccc1)(c1ccccc1)n1ccnc1,505,<2 µg/mL
CN1CCC2=C(CCCC2CCc2ccc(Br)cc2)C1,2005E,2 µg/mL
CC(C/C=C/C=C/CC/C=C\C=C\CCC(C)(C)C)C(O)C(O)C(O)C(O)C(O)C1OC(=O)C(O)C1O,ATCC 32354 (B311),25 µg/mL
COc1ccc(C(=O)/C=C/c2ccc(C(=O)N3C/C(=C/c4ccccc4)C(=O)/C(=C\c4ccccc4)C3)cc2)cc1OC,1 clinical isolate,>32 µg/mL
Cc1c(N2CC[C@H](NC(=O)[C@H](C)N)C2)c(F)cn2c(=O)c(C(=O)O)cc(C3CC3)c12,CCH442,>100 µg/mL
CN1CCC2=C(CCCC2CCc2ccccc2Cl)C1,2402E,62 µg/mL
CC1=C(N2CCC(C(=O)O)C2)C(F)=CN2C(=O)C(C(=O)O)=CC(C3CC3)C12,CCH442,>100 µg/mL
COC(=O)[C@H]1[C@@H]2C[C@@H](O[C@@H]3O[C@H](C)[C@@H](O)[C@H](N)[C@@H]3O)/C=C/C=C/C=C/C=C/C=C/C=C/C=C/[C@H](C)[C@@H](O)[C@H](C)[C@H](C)OC(=O)C[C@H](O)C[C@H](O)[C@@H](O)CC[C@H](O)C[C@H](O)C[C@](O)(C[C@@H]1O)O2,Clinical isolates,0.5 µg/mL
O=S(O)Cc1ccccc1,,2 µg/mL
CC(C)CCCCCCCCCC1CC(=O)N[C@@H](CC(=O)O)C(=O)N[C@@H](CC(C)C)C(=O)N[C@@H](CC(C)C)C(=O)N[C@@H](C(C)C)C(=O)N[C@@H](C(C)C)C(=O)N[C@@H](CCC(=O)O)C(=O)N[C@@H](CC(C)C)C(=O)O1,Clinical isolate,7 µg/mL
Clc1ccc(COC(Cn2ccnc2)c2ccc(Cl)cc2Cl)c(Cl)c1,,≥0.2 µg/mL
COc1cccc(C(=O)NCCCCCCCC2COC(=O)C(Cc3ccccc3)C(OC(=O)C(C)C)C(C)OC2=O)c1O,IFO1061,25 µg/mL
Cc1c(N2C[C@@H](N)[C@H](C(F)(F)F)C2)c(F)cn2c(=O)c(C(=O)O)cc(C3CC3)c12,CCH442,>100 µg/mL
O=S(CCO)SCc1ccccc1,,16 µg/mL
O=c1ccc2cc([N+](=O)[O-])ccc2o1,ATCC 14053,500 µg/mL
CC1=C(N2CC3CNCC3C2)C(F)=CN2C(=O)C(C(=O)O)=CC(C3CC3)C12,CCH442,>100 µg/mL
COc1ccc(C(=O)/C=C/c2ccc(C(=O)O)cc2)cc1OC,1 clinical isolate,>32 µg/mL
CN1C(=O)C(=O)N(C)C1=[Se],CA10,6 µg/mL
OCCSSSCCO,,8 µg/mL
C[C@@H]1OC(OC[C@H]2OC(Oc3c(-c4ccc(O)c(O)c4)oc4cc(O)cc(O)c4c3=O)[C@H](O)[C@@H](O)[C@@H]2O)[C@H](O)[C@H](O)[C@H]1O,ATCC 10231,80 µg/mL
CCN1C(=O)C(=O)N(CC)C1=[Se],CA10,3 µg/mL

Repeating the final 5 entries:

compound	strain or isolate	result
COc1ccc(C(=O)/C=C/c2ccc(C(=O)O)cc2)cc1OC	1 clinical isolate	>32 µg/mL
CN1C(=O)C(=O)N(C)C1=[Se]	CA10	6 µg/mL
OCCSSSCCO		8 µg/mL
C[C@@H]1OC(OC[C@H]2OC(Oc3c(-c4ccc(O)c(O)c4)oc4cc(O)cc(O)c4c3=O)[C@H](O)[C@@H](O)[C@@H]2O)[C@H](O)[C@H](O)[C@H]1O	ATCC 10231	80 µg/mL
CCN1C(=O)C(=O)N(CC)C1=[Se]	CA10	3 µg/mL